Km, kcat and kcat/Km data for 1 substance are collected here from PMC12769810, “Structure and substrate promiscuity of Campylobacter jejuni periplasmic nitrate reductase (Nap) and phylogenetic analysis of Nap homologs” (The Journal of Biological Chemistry, 2025).

For one data set, the system named is [O-][Cl+3]([O-])([O-])O. The data set can be described thus: purified protein. Particulars: reduced methyl viologen, 50 mM HEPES pH 7, room temperature, argon glove box, 217 nM enzyme, corrected for background oxidation.
A further data set deals with [O-][Cl+2]([O-])O. Kind of data set: purified protein. The conditions noted are these: reduced methyl viologen, 50 mM HEPES pH 7, room temperature, argon glove box, 430 nM enzyme.

As to “CjNapA (WT NapA) (Campylobacter jejuni subsp. jejuni NCTC 11168 = ATCC 700819; C176D)”, in data set [O-][Cl+3]([O-])([O-])O, the Km came to 7.678 ± 0.855 mM, the turnover number (kcat) stood at 0.51 s⁻¹ and the kcat/Km turned out to be 66 M⁻¹ s⁻¹. In data set [O-][Cl+2]([O-])O, the Km worked out at 0.549 ± 0.065 mM, the kcat amounted to 0.35 s⁻¹ and the kcat/Km is 640 M⁻¹ s⁻¹.
